Measured values from several laboratories, pooled; numbers as filed in NIAID ChemDB.

Common to all: tests in culture; organism: HIV-1; cells: C8166; endpoint: EC50

ECn: concentration that inhibits the pathogen or its effect by n%. An empty or dashed field is not shown. Rows are shuffled and stem from different studies.

structure	strain	mutations	method	value
C=C(C)[C@H](O)COc1cc(OC)c2c(c1)C(=O)c1cc(O)cc(O)c1-2	IIIB		MTT	1.58 µg/mL
C[C@H](Cn1cnc2c(N)nc(N)nc21)OCP(=O)(O)O	IIIB		syncytia	2.8 µM
Cc1cn([C@H]2C[C@H](N=[N+]=[N-])[C@@H](CO)O2)c(=O)[nH]c1=O	RF		p24	0.04 µM
O=[N+]([O-])c1ccc(-n2ccc3cc([N+](=O)[O-])ccc32)cc1	IIIB		syncytia	2.93 µg/mL
O=c1[nH]cnc2c1ncn2[C@H]1CC[C@@H](CO)O1	RF		p24	0.9 µM
Cc1cn([C@H]2C[C@H](N=[N+]=[N-])[C@@H](COP(=O)(Oc3ccccc3)Oc3ccccc3)O2)c(=O)[nH]c1=O	IIIB		p24	0.3 µM
NC1=Nc2c(ncn2CCCCCP(=O)(O)O)C(=O)C1	RF		p24	>320 µM
O=c1[nH]cnc2c1ncn2[C@H]1CC[C@@H](CO)O1		RT-M41L L74V V106A T215F	p24	14 µM
O=CC1=C(Oc2cccc3ccccc23)N2C[C@@H]3CCCN4CCC[C@@H]([C@H]34)[C@H]2CC1	IIIB		syncytia	1.79 µg/mL
C/C=C/c1cc(=O)c2c(CC(C)=O)cc(O)cc2o1	IIIB		MTT	1.87 µg/mL
Cc1nc(C(=O)N[C@@H](C)C(C)(C)C)c(C)c(-c2ccc3c(c2)SCCO3)c1[C@H](OC(C)(C)C)C(=O)O	NL4-3		luciferase	1.7 nM
CC(C)(C)c1ccc(OC2=C(C=O)CC[C@@H]3[C@H]4CCCN5CCC[C@@H](CN23)[C@@H]45)cc1	IIIB		syncytia	15.41 µg/mL
COc1ncnc2c1ncn2[C@@H]1O[C@H](CO[Si](C)(C)C(C)(C)C)C2(OS(=O)(=O)C=C2N)[C@H]1O[Si](C)(C)C(C)(C)C	IIIB		syncytia	0.7 µg/mL
Cc1cn([C@H]2C[C@H](N=[N+]=[N-])[C@@H](CO)O2)c(=O)[nH]c1=O	IIIB		p24	<0.08 µg/mL
O=CC1=C(Oc2ccc3ccccc3c2)N2C[C@@H]3CCCN4CCC[C@@H]([C@H]34)[C@H]2CC1	IIIB		syncytia	19.36 µg/mL
COc1cc(/C=C/C(=O)O[C@@H]2Cc3c(O)cc(O)cc3O[C@@H]2c2ccc(O)c(O)c2)ccc1O	IIIB		MTT	15.85 µg/mL
COC1=C(C=O)CC[C@@H]2[C@H]3CCCN4CCC[C@@H](CN12)[C@@H]34	IIIB		syncytia	10.52 µg/mL
CC(C)c1c(COC(N)=O)cn(Cc2ccncc2)c1Sc1ccccc1		RT-Y181C	p24	>100 µM
CN(C)c1ncnc2c1ncn2[C@@H]1O[C@H](CO[Si](C)(C)C(C)(C)C)C2(OS(=O)(=O)C=C2N)[C@H]1O[Si](C)(C)C(C)(C)C	IIIB		syncytia	0.8 µg/mL
Cc1cn([C@H]2C[C@H](N=[N+]=[N-])[C@@H](COP(=O)(N[C@@H](C)C(=O)OCc3ccccc3)OCC(Cl)(Cl)Cl)O2)c(=O)[nH]c1=O	IIIB		p24	0.03 µM
O=C1/C(=C\Oc2ccc([N+](=O)[O-])cc2)CC[C@@H]2[C@H]3CCCN4CCC[C@@H](CN12)[C@@H]34	IIIB		syncytia	14.36 µg/mL
CCc1c(CC2CCCCC2)nc(SCC(=O)c2ccccc2)[nH]c1=O	NL4-3	K103N	p24 / ELISA	0.709 µM
CC(C)(C)[Si](C)(C)OC[C@H]1O[C@@H](n2cnc3c(=O)[nH]cnc32)[C@H](O[Si](C)(C)C(C)(C)C)C12OS(=O)(=O)C=C2N	IIIB		syncytia	0.4 µg/mL
Cc1cn([C@H]2C[C@H](N=[N+]=[N-])[C@@H](CO)O2)c(=O)[nH]c1=O	IIIB		syncytia	0.08 µM
CC(C)CN(C[C@@H](O)[C@H](Cc1ccccc1)NC(=O)O[C@H]1CCOC1)S(=O)(=O)c1ccc(N)cc1	IIIB		ELISA	0.007 µM
Cc1cn([C@H]2C[C@H](N=[N+]=[N-])[C@@H](CO)O2)c(=O)[nH]c1=O		RT-D67N K70R T215F K219Q	p24	0.53 µM
Cc1ccc(-c2nc(C)c([C@H](OC(C)(C)C)C(=O)O)c(-c3ccc4occc4c3)c2C)cc1C	NL4-3		luciferase	17 nM
O=C(c1ccccc1)c1c(O)cc(O)c([C@@H]2O[C@H](CO)[C@@H](O)[C@H](O)[C@H]2O)c1O	IIIB		MTT	131.7 µg/mL
C[C@@H](Cn1cnc2c(N)ncnc21)OCP(=O)(O)O	IIIB		syncytia	≥100 µM
Cc1cn([C@H]2C[C@H](N=[N+]=[N-])[C@@H](CO)O2)c(=O)[nH]c1=O	IIIB		syncytia	0.00251 µg/mL
Cc1cn([C@H]2C[C@H](N=[N+]=[N-])[C@@H](COP(=O)(Oc3ccc([N+](=O)[O-])cc3)Oc3ccc([N+](=O)[O-])cc3)O2)c(=O)[nH]c1=O	IIIB		p24	0.0032 µM
N#Cc1ccccc1-n1ccc2ccccc21	IIIB		syncytia	82.28 µg/mL
O=C(c1ccccc1)c1c(O)cc(O)cc1O[C@@H]1O[C@H](CO)[C@@H](O)[C@H](O)[C@H]1O	IIIB		MTT	18.06 µg/mL
Cc1nc(C(=O)N[C@@H](C)C2CCCCC2)c(C)c(-c2ccc(Cl)cc2)c1[C@H](OC(C)(C)C)C(=O)O	NL4-3		luciferase	6.9 nM
CC(C)(C)[Si](C)(C)OC[C@H]1O[C@@H](n2cnc3[nH]c(=O)[nH]c(=O)c32)[C@H](O[Si](C)(C)C(C)(C)C)C12OS(=O)(=O)C=C2N	IIIB		syncytia	0.4 µg/mL
CC(C)c1c(CO)cn(Cc2ccncc2)c1Sc1ccccc1		RT-Y181C	p24	>100 µM
Cc1cccc2ccn(-c3ccccc3[N+](=O)[O-])c12	IIIB		syncytia	37.76 µg/mL
O=CC1=C(Cl)N2C[C@@H]3CCCN4CCC[C@@H]([C@H]34)[C@H]2CC1	IIIB		syncytia	10.71 µg/mL

A second listing of 3 rows from above:

| structure | strain | mutations | method | value |
|---|---|---|---|---|
| O=CC1=C(Oc2ccc3ccccc3c2)N2C[C@@H]3CCCN4CCC[C@@H]([C@H]34)[C@H]2CC1 | IIIB |  | syncytia | 19.36 µg/mL |
| CC(C)(C)c1ccc(OC2=C(C=O)CC[C@@H]3[C@H]4CCCN5CCC[C@@H](CN23)[C@@H]45)cc1 | IIIB |  | syncytia | 15.41 µg/mL |
| Cc1cn([C@H]2C[C@H](N=[N+]=[N-])[C@@H](CO)O2)c(=O)[nH]c1=O | IIIB |  | syncytia | 0.00251 µg/mL |